Reference: publication PMC6253839, “Screening of Agelasine D and Analogs for Inhibitory Activity against Pathogenic Protozoa; Identification of Hits for Visceral Leishmaniasis and Chagas Disease” (Molecules, 2009)

Key:
[1] = system: P. falciparum GHA-strain (chloroquine-suceptible); experiment: Antiplasmodial activity, Malstat method; type: cell-based, Plasmodium falciparum; conditions: SI = IC50(fibroblast)/IC50(parasite); TDR criterion >20
[2] = system: Leishmania infantum amastigotes (MHOM/ET 67); experiment: Antileishmanial activity, amastigotes in primary peritoneal mouse macrophages; type: cell-based; conditions: SI = IC50(fibroblast)/IC50(parasite); TDR criterion >20
Procedure: Leishmania infantum amastigotes (MHOM/ET 67) were collected from an infected donor hamster and used to infect primary peritoneal mouse macrophages. To determine in vitro antileishmanial activity, 3×10^4 macrophages were seeded in each well of a 96-well plate. After 48 h outgrowth, 5×10^4 amastigotes/well were added and incubated for 2 h at 37 °C. […] Parasite burdens were determined microscopically after Giemsa staining and expressed as a percentage of the blank controls without compound.

[3] = system: T. b. brucei Squib-427 strain (suramin-sensitive); experiment: Antitrypanosomal activity, T. b. brucei trypomastigotes, resazurin; conditions: SI = IC50(fibroblast)/IC50(parasite); TDR criterion >100
[4] = system: T. cruzi Tulahuen CL2 strain (nifurtimox-sensitive); experiment: Antitrypanosomal activity, T. cruzi on MRC-5 cells, β-galactosidase readout; type: cell-based, Trypanosoma cruzi; conditions: SI = IC50(fibroblast)/IC50(parasite); TDR criterion >50
Procedure: To determine in vitro anti-trypanosomal activity, 4×10^3 MRC-5 cells and 4×10^4 parasites were added to each well of test plate with compound. […] The color reaction was read at 540 nm and absorbance values were expressed as a percentage of the blank controls.

`CO/N=c1\[n-]cnc2c1[n+](C/C=C(\C)CC/C=C(\C)CCC=C(C)C)cn2C` [Compound 1b] was tested, and the “P. falciparum SI” value [1] was <1, the “L. infantum SI” value [2] was <1 and the “T. b. brucei SI” value [3] was 1.8. For the same compound, the “T. cruzi SI” value [4] was >3.6.
For `CC(C)=CCC/C(C)=C/CC/C(C)=C/CC/C(C)=C/C[n+]1cn(C)c2nc[n-]/c(=N\OCc3ccccc3)c21` [Compound 1e], the “P. falciparum SI” value [1] was <1, the “L. infantum SI” value [2] was <1 and the “T. b. brucei SI” value [3] was 11. For the same compound, the “T. cruzi SI” value [4] was 2.3.
For `CC(C)=CCC/C(C)=C\CC/C(C)=C/C[n+]1cn(C)c2nc[n-]/c(=N\OCc3ccccc3)c21` [Compound 1c], the “P. falciparum SI” value [1] was <1, the “L. infantum SI” value [2] was <1 and the “T. b. brucei SI” value [3] was >2.8. The “T. cruzi SI” value [4] was >2.8.
`C/C(=C\C[n+]1cn(C)c2ncnc(N)c21)CCCC(C)CCCC(C)CCCC(C)C` (stereo not drawn) [Compound 2b] was tested, and the “P. falciparum SI” value [1] was <1, the “L. infantum SI” value [2] was <1 and the “T. b. brucei SI” value [3] was 3.3. The “T. cruzi SI” value [4] was >6.3.
In the case of `CC(C)=CCC/C(C)=C/CC/C(C)=C/CC/C(C)=C/C[n+]1cn(C)c2nc[n-]/c(=N\OC(C)(C)C)c21` [Compound 1f], the “P. falciparum SI” value [1] is reported as 1.0, the “L. infantum SI” value [2] is reported as <1 and the “T. b. brucei SI” value [3] is reported as >2.2. For the same compound, the “T. cruzi SI” value [4] was >2.2.
For `CONc1ncnc2ncn(C/C=C(\C)CC/C=C(\C)CC/C=C(\C)CCC=C(C)C)c12` [Compound 4b], the “P. falciparum SI” value [1] was <1, the “L. infantum SI” value [2] was <1 and the “T. b. brucei SI” value [3] was 2.4. For the same compound, the “T. cruzi SI” value [4] was 7.5.
With `CC(C)=CCC/C(C)=C/CC/C(C)=C/CC/C(C)=C/Cn1c[n+](C)c2ccccc21` [Compound 6] the “P. falciparum SI” value [1] was 2.0, the “T. b. brucei SI” value [3] was 11 and the “T. cruzi SI” value [4] was >17.
For `CC(C)=CCC/C(C)=C/CC/C(C)=C/CC/C(C)=C/C[n+]1cn(CCC#N)c2nc[n-]/c(=N\OCc3ccccc3)c21` [Compound 1h], the “P. falciparum SI” value [1] was <1, the “L. infantum SI” value [2] was <1 and the “T. b. brucei SI” value [3] was 2.1. The “T. cruzi SI” value [4] was 1.2.
With `CC(C)=CCC/C(C)=C/CC/C(C)=C/CC/C(C)=C/C[n+]1cnc2c(ncn2C)c1N` [Compound 7] the “P. falciparum SI” value [1] was 1.6, the “T. b. brucei SI” value [3] was 3.9 and the “T. cruzi SI” value [4] was 1.5.
For `CO/N=c1\[n-]cnc2c1[n+](C/C=C(\C)CC/C=C(\C)CC/C=C(\C)CCC=C(C)C)cn2CCC#N` [Compound 1g], the “P. falciparum SI” value [1] was <1, the “L. infantum SI” value [2] was <1 and the “T. b. brucei SI” value [3] was <1. For the same compound, the “T. cruzi SI” value [4] was <1.
With `CC(C)=CCC/C(C)=C/CC/C(C)=C/CC/C(C)=C/Cn1cnc2ncnc(N)c21` [Compound 4a] the “P. falciparum SI” value [1] was <1, the “L. infantum SI” value [2] was <1 and the “T. b. brucei SI” value [3] was <1. For the same compound, the “T. cruzi SI” value [4] was 1.1.
`C=C1CC[C@H]2C(C)(C)CCC[C@]2(C)[C@H]1CC/C(C)=C/C[n+]1cn(C)c2nc[n-]/c(=N\OC(C)(C)C)c21` [Compound 1o] was tested, and the “P. falciparum SI” value [1] was <1, the “L. infantum SI” value [2] was <1 and the “T. b. brucei SI” value [3] was >3.8. The “T. cruzi SI” value [4] was >3.8.
For `CC1=C(CC/C(C)=C/CC/C(C)=C/C[n+]2cn(C)c3nc[n-]/c(=N\OC(C)(C)C)c32)C(C)(C)CCC1` [Compound 1m], the “P. falciparum SI” value [1] was <1, the “L. infantum SI” value [2] was <1 and the “T. b. brucei SI” value [3] was >4. The “T. cruzi SI” value [4] was >4.
In the case of `CC(C)=CCC/C(C)=C/CC/C(C)=C/CC/C(C)=C/Cn1cnc2ncnc(NOCc3ccccc3)c21` [Compound 4c], the “P. falciparum SI” value [1] is reported as <1, the “L. infantum SI” value [2] is reported as <1 and the “T. b. brucei SI” value [3] is reported as <1. For the same compound, the “T. cruzi SI” value [4] was 1.0.
For `C=C1CC[C@H]2C(C)(C)CCC[C@]2(C)[C@H]1CC/C(C)=C/C[n+]1cn(C)c2nc[n-]/c(=N\OC)c21` [Compound 1n], the “P. falciparum SI” value [1] was 16, the “L. infantum SI” value [2] was 7.1 and the “T. b. brucei SI” value [3] was 15. The “T. cruzi SI” value [4] was 9.2.
For `CO/N=c1\[n-]cnc2c1[n+](C/C=C(\C)CCC=C(C)C)cn2C` [Compound 1a], the “P. falciparum SI” value [1] was 1.9, the “L. infantum SI” value [2] was <1 and the “T. b. brucei SI” value [3] was <1. For the same compound, the “T. cruzi SI” value [4] was >11.
For `CO/N=c1\[n-]cnc2c1[n+](C/C=C(\C)CCCC(C)CCCC(C)CCCC(C)C)cn2C` (stereo not drawn) [Compound 1j], the “P. falciparum SI” value [1] was <1, the “L. infantum SI” value [2] was <1 and the “T. b. brucei SI” value [3] was 1.9. The “T. cruzi SI” value [4] was >1.9.
For `CC1=C(CC/C(C)=C/CC/C(C)=C/Cn2cnc3c2C(=N)N(C)CN3C)C(C)(C)CCC1` [Compound 9], the “T. b. brucei SI” value [3] was >2 and the “T. cruzi SI” value [4] was >8.8.
With `CC(C)=CCC/C(C)=C/CC/C(C)=C/CC/C(C)=C/Cn1cc[n+](C)c1` [Compound 5] the “P. falciparum SI” value [1] was 7.8, the “L. infantum SI” value [2] was >69 and the “T. b. brucei SI” value [3] was > 69. The “T. cruzi SI” value [4] was > 50 and >69.
In the case of `CC1=C(CC/C(C)=C/CC/C(C)=C/C[n+]2cn(C)c3nc[n-]/c(=N\OCc4ccccc4)c32)C(C)(C)CCC1` [Compound 1l], the “P. falciparum SI” value [1] is reported as <1, the “L. infantum SI” value [2] is reported as <1 and the “T. b. brucei SI” value [3] is reported as >4.1. For the same compound, the “T. cruzi SI” value [4] was 3.8.
`CC(C)=CCC/C(C)=C/CC/C(C)=C/CC/C(C)=C/Cn1cnc2c1c(=N)ncn2C` [Compound 8] was tested, and the “T. b. brucei SI” value [3] was 3.7 and the “T. cruzi SI” value [4] was 12.
For `CO/N=c1\[n-]cnc2c1[n+](C/C=C(\C)CC/C=C(\C)CC/C=C(\C)CCC=C(C)C)cn2C(c1ccccc1)c1ccccc1` [Compound 1i], the “P. falciparum SI” value [1] was <1, the “L. infantum SI” value [2] was <1 and the “T. b. brucei SI” value [3] was 3.2. For the same compound, the “T. cruzi SI” value [4] was <1.
In the case of `CC(C)=CCC/C(C)=C\CC/C(C)=C/C[n+]1cn(C)c2ncnc(N)c21` [Compound 2a], the “P. falciparum SI” value [1] is reported as >9.0, the “T. b. brucei SI” value [3] is reported as >2 and the “T. cruzi SI” value [4] is reported as > 50 and >60.
In the case of `C=C1CC[C@@H]2C(C)(C)CCC[C@@]2(C)[C@@H]1CC/C(C)=C/Cn1c[n+](C)c2ncnc(N)c21` [Compound 2c, agelasine D], the “P. falciparum SI” value [1] is reported as 23, the “L. infantum SI” value [2] is reported as 4.5 and the “T. b. brucei SI” value [3] is reported as 7.4. For the same compound, the “T. cruzi SI” value [4] was 1.5.
For `CC(C)=CCC/C(C)=C/CC/C(C)=C/CC/C(C)=C/Cn1cnc2c(N)ncnc21` [Compound 3f, 9-Geranylgeranyladenine], the “P. falciparum SI” value [1] was <1, the “L. infantum SI” value [2] was <1 and the “T. b. brucei SI” value [3] was 1.0.
`CO/N=c1\[n-]cnc2c1[n+](C/C=C(\C)CC/C=C(\C)CC/C=C(\C)CCC=C(C)C)cn2C` [Compound 1d] was tested, and the “P. falciparum SI” value [1] was 20, the “L. infantum SI” value [2] was 22 and the “T. b. brucei SI” value [3] was 8.7. The “T. cruzi SI” value [4] was 18.

“And” between values parts separate entries of the source, which are not always exact repeats. Equal values may be shown once.
